Results of unrelated studies side by side (data: NIAID ChemDB).

Common to all: tests in culture; organism: Mycobacterium avium complex

a–b is a range or a potency band. A number after MIC or MFC names an inhibition level or a share of isolates. Conditions beyond the fields shown may differ between rows.

SMILES,strain,endpoint,value
CC[C@H]1OC(=O)[C@H](C)[C@@H](OC(=O)Cc2ccccc2)[C@H](C)[C@@H](O[C@@H]2O[C@H](C)C[C@H](N(C)C)[C@H]2O)C(C)(O)C[C@@H](C)/C(=N\OCCCOc2ccccc2)[C@H](C)[C@@H](O)[C@]1(C)O,20096 (clarithromycin-resistant),MIC,6.25 µg/mL
CO[C@H]1/C=C/O[C@@]2(C)Oc3c(C)c(O)c4c(O)c(c5c(c4c3C2=O)NC2(CCN(CC(C)C)CC2)N=5)=NC(=O)/C(C)=C\C=C\[C@H](C)[C@H](O)[C@@H](C)[C@@H](O)[C@@H](C)[C@H](OC(C)=O)[C@@H]1C,N-238 (HIV-),MIC,0.2 µg/mL
CC(C)N=c1cc2n(-c3ccc(Cl)cc3)c3ccccc3nc-2cc1Nc1ccc(Cl)cc1,715,MIC,0.5 µg/mL
O=C1c2cc(I)ccc2-n2c1nc1ncccc1c2=O,19075,MIC,5 µg/mL
CC[C@H]1OC(=O)[C@H](C)[C@@H](O[C@H]2C[C@@](C)(OC)[C@@H](OC(C)=O)[C@H](C)O2)[C@H](C)[C@@H](O[C@@H]2O[C@H](C)C[C@H](N(C)C)[C@H]2OC(=O)NNCc2ccccc2)C(C)(O)C[C@@H](C)/C(=N\OCCCC2CCCCC2)[C@H](C)[C@@H](O)[C@]1(C)O,20096 (clarithromycin-resistant),MIC,0.78 µg/mL
O=C1c2cc(F)ccc2-n2c1nc1c(F)cccc1c2=O,19075,MIC,1 µg/mL
CO[C@H]1/C=C/O[C@@]2(C)Oc3c(C)c(O)c4c(O)c(c5c(c4c3C2=O)NC2(CCN(CC(C)C)CC2)N=5)=NC(=O)/C(C)=C\C=C\[C@H](C)[C@H](O)[C@@H](C)[C@@H](O)[C@@H](C)[C@H](OC(C)=O)[C@@H]1C,800-4,MIC,0.013 µg/mL
CCCCCCCCO[C@H]1OC([C@@H](COC)O[C@H]2O[C@H]([C@@H](O)CO)[C@@H](O)[C@@H]2O)[C@@H](OC)[C@@H]1OC,NJ211,MIC,>12.8 µg/mL
CC[C@H]1OC(=O)[C@H](C)[C@@H](O[C@H]2C[C@@](C)(OC)[C@@H](O)[C@H](C)O2)[C@H](C)[C@@H](O[C@@H]2O[C@H](C)C[C@H](N(C)C)[C@H]2O)[C@](C)(OC)C[C@@H](C)C(=O)[C@H](C)[C@@H](O)[C@]1(C)O,ATCC 35718,MIC,1 µg/mL
COc1ccc(NCc2cnc3nc(N)nc(N)c3c2C)cc1F,NJ3404,MIC,≤0.13 µg/mL
NNC(=O)c1ccncc1,13013,MIC,20–25 µg/mL
CC[C@H]1OC(=O)[C@H](C)[C@@H](O[C@H]2C[C@@](C)(OC)[C@@H](O)[C@H](C)O2)[C@H](C)[C@@H](O[C@@H]2O[C@H](C)C[C@H](N(C)C)[C@H]2O)[C@](C)(O)C[C@@H](C)CN(C)[C@H](C)[C@@H](O)[C@]1(C)O,101,MIC,8 µg/mL
O=C1c2cc(F)ccc2-n2c1nc1ccccc1c2=O,101,MIC,1 µg/mL
COc1ccc(C)c(NCc2cnc3nc(N)nc(N)c3c2C)c1,NJ168,MIC,≤0.13 µg/mL
O=C1c2cc(Br)ccc2-n2c1nc1ccncc1c2=O,19075,MIC,0.25 µg/mL
Cc1c(CNc2ccc(Cl)c(Cl)c2)cnc2nc(N)nc(N)c12,NJ168,MIC,≤0.13 µg/mL
CC1(C)N=C(N)N=C(N)N1OCCCOc1cc(Cl)c(Cl)cc1Cl,DW17,MIC,1 µg/mL
C[C@@H]1CN(c2c(F)c(N)c3c(=O)c(C(=O)O)cn(C4CC4)c3c2F)C[C@H](C)N1,ATCC 15769,MBC,0.5 µg/mL
CCOC(=O)c1ccc2c(c1)C(=O)c1nc3ncccc3c(=O)n1-2,19075,MIC,5 µg/mL
COc1ccc(NCc2cnc3nc(N)nc(N)c3c2C)cc1OC,NJ3404,MIC,≤0.13 µg/mL
CC[C@H]1OC(=O)[C@H](C)[C@@H](OC(=O)Cc2ccc[nH]2)[C@H](C)[C@@H](O[C@@H]2O[C@H](C)C[C@H](N(C)C)[C@H]2O)C(C)(O)C[C@@H](C)/C(=N\OCCCOc2ccccc2)[C@H](C)[C@@H](O)[C@]1(C)O,20092 (clarithromycin-resistant),MIC,6.25 µg/mL
CCCCCCCCOC1O[C@@H](C(O)COC2O[C@@H](C(O)CO)[C@H](O)[C@H]2O)[C@H](O)[C@H]1O,NJ168,MIC,>128 µg/mL
C[C@H]1COc2c(N3CCN(C)CC3)c(F)cc3c(=O)c(C(=O)O)cn1c23,25 isolates,MIC90,>8 µg/mL
CC[C@H]1OC(=O)[C@H](C)[C@@H](O[C@H]2C[C@@](C)(OC)[C@@H](OC(C)=O)[C@H](C)O2)[C@H](C)[C@@H](O[C@@H]2O[C@H](C)C[C@H](N(C)C)[C@H]2O)C(C)(O)C[C@@H](C)/C(=N\OCCCc2ccccc2)[C@H](C)[C@@H](O)[C@]1(C)O,20096 (clarithromycin-resistant),MIC,3.13 µg/mL
C[C@@H]1CN(c2c(F)c(N)c3c(=O)c(C(=O)O)cn(C4CC4)c3c2F)C[C@H](C)N1,ATCC 35718,MIC,8 µg/mL
Nc1ccc(S(=O)(=O)c2ccc(N)cc2)cc1,DW6,MIC,64 µg/mL
COc1cccc2c(=O)n3c(nc12)C(=O)c1cc(I)ccc1-3,101,MIC,1 µg/mL
CC1CN(c2cc3c(cc2F)c(=O)c(C(=O)O)cn3-c2ccc(F)cc2F)CCN1,25 isolates,MIC90,>8 µg/mL
CCCCCCCCOC1OC([C@H](CO)OC2O[C@@H](C(O)CO)[C@H](O)[C@H]2O)[C@H](O)[C@H]1O,NJ3404,MIC,>128 µg/mL
CC(=O)Nc1ccc(/C(C)=N\NC(N)=S)cc1,100,MIC,16 µg/mL
NNC(=O)c1ccncc1,N-251 (HIV-),MIC,4 µg/mL
CO[C@H]1/C=C/O[C@@]2(C)Oc3c(C)c(O)c4c(O)c(c(/C=N/N5CCN(C6CCCC6)CC5)c(O)c4c3C2=O)NC(=O)/C(C)=C\C=C\[C@H](C)[C@H](O)[C@@H](C)[C@@H](O)[C@@H](C)[C@H](OC(C)=O)[C@@H]1C,101,MIC,1 µg/mL
CO[C@H]1/C=C/O[C@@]2(C)Oc3c(C)c(O)c4c(=O)c(c5oc6cc(N7CCN(CC(C)C)CC7)cc(=O)c6nc5c4c3=C2O)NC(=O)/C(C)=C\C=C\[C@H](C)[C@H](O)[C@@H](C)[C@@H](O)[C@@H](C)[C@H](OC(C)=O)[C@@H]1C,N-951 (HIV+),MIC,0.05 µg/mL
CC1COc2c(N3CCN(C)CC3)c(F)cc3c(=O)c(C(=O)O)cn1c23,ATCC 35718,MIC,>8 µg/mL
CCCCCCCCO[C@@H]1O[C@@H](C(COCc2ccccc2)O[C@@H]2O[C@@H](C(COC(C)=O)OC(C)=O)[C@H](OC(C)=O)[C@H]2OC(C)=O)[C@H](OCc2ccccc2)[C@H]1OCc1ccccc1,NJ211,MIC,>128 µg/mL
CC1(C)N=C(N)N=C(N)N1OCCCOc1cc(Cl)c(Cl)cc1Cl,3028,MIC,2 µg/mL
CCOC(=O)c1ccc2c(c1)C(=O)c1nc3c(OC)cccc3c(=O)n1-2,19075,MIC,5 µg/mL
Cc1c(CNc2cc(F)ccc2F)cnc2nc(N)nc(N)c12,NJ3404,MIC,≤0.13 µg/mL
CC[C@H]1OC(=O)[C@H](C)[C@@H](O[C@H]2C[C@@](C)(OC)[C@@H](O)[C@H](C)O2)[C@H](C)[C@@H](O[C@@H]2O[C@H](C)C[C@H](N(C)C)[C@H]2O)[C@](C)(OC)C[C@@H](C)C(=O)[C@H](C)[C@@H](O)[C@]1(C)O,N-319 (HIV-),MIC,4 µg/mL
CCN=c1cc2n(-c3ccc(Cl)cc3)c3ccccc3nc-2cc1Nc1ccc(Cl)cc1,101,MBC,64 µg/mL
Cc1c(CNc2ccc3c(c2)Cc2ccccc2-3)cnc2nc(N)nc(N)c12,NJ211,MIC,≤0.13 µg/mL

For reference, 5 entries again:

O=C1c2cc(F)ccc2-n2c1nc1ccccc1c2=O ; strain: 101 ; endpoint: MIC ; value: 1 µg/mL
C[C@@H]1CN(c2c(F)c(N)c3c(=O)c(C(=O)O)cn(C4CC4)c3c2F)C[C@H](C)N1 ; strain: ATCC 15769 ; endpoint: MBC ; value: 0.5 µg/mL
CC[C@H]1OC(=O)[C@H](C)[C@@H](O[C@H]2C[C@@](C)(OC)[C@@H](OC(C)=O)[C@H](C)O2)[C@H](C)[C@@H](O[C@@H]2O[C@H](C)C[C@H](N(C)C)[C@H]2OC(=O)NNCc2ccccc2)C(C)(O)C[C@@H](C)/C(=N\OCCCC2CCCCC2)[C@H](C)[C@@H](O)[C@]1(C)O ; strain: 20096 (clarithromycin-resistant) ; endpoint: MIC ; value: 0.78 µg/mL
CC[C@H]1OC(=O)[C@H](C)[C@@H](OC(=O)Cc2ccc[nH]2)[C@H](C)[C@@H](O[C@@H]2O[C@H](C)C[C@H](N(C)C)[C@H]2O)C(C)(O)C[C@@H](C)/C(=N\OCCCOc2ccccc2)[C@H](C)[C@@H](O)[C@]1(C)O ; strain: 20092 (clarithromycin-resistant) ; endpoint: MIC ; value: 6.25 µg/mL
CC[C@H]1OC(=O)[C@H](C)[C@@H](O[C@H]2C[C@@](C)(OC)[C@@H](OC(C)=O)[C@H](C)O2)[C@H](C)[C@@H](O[C@@H]2O[C@H](C)C[C@H](N(C)C)[C@H]2O)C(C)(O)C[C@@H](C)/C(=N\OCCCc2ccccc2)[C@H](C)[C@@H](O)[C@]1(C)O ; strain: 20096 (clarithromycin-resistant) ; endpoint: MIC ; value: 3.13 µg/mL